Data: US7615542B2, “Dioxolane thymine and combinations for use against 3TC/AZT resistant strains of HIV” (priority 2002, dated 2009)

Test system: K65RPITT
Assay: Cross-resistance assay in human PBM cells, RT activity readout: K65R virus
Type: cell-based, HIV
Conditions: slope of concentration-response curve

In the case of `Cc1cn([C@H]2CO[C@@H](CO)O2)c(=O)[nH]c1=O` [DOT, (−)-(1′R,4′R)-Dioxolane-thymine], the SLOPE is reported as 1.1 ± 0.12 and 0.82 ± 0.16.

“And” between values parts separate entries of the source, which are not always exact repeats. Equal values may be shown once.
